This note sets out measurements from article PMC3426641 (Biochemistry, 2012).

By UniProt entry, the sequences of proteins in these tests, tags left out. Where a name states a change or a piece, a line headed by the entry shows the natural chain unless it says otherwise.
UniProt P9WFK7: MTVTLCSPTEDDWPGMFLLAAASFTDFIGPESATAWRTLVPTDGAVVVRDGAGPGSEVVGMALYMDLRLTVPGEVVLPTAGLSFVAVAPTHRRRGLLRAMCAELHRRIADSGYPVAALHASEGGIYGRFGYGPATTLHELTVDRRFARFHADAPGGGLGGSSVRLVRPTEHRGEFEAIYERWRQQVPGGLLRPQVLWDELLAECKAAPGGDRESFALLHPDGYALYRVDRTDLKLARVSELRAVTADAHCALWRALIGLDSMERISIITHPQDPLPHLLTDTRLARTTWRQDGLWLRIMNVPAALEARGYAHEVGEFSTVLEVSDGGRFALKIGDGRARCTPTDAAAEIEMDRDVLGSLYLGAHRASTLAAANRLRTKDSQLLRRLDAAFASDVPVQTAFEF

One data set deals with kanamycin A. The data set can be described thus: purified protein, by the assay type. The settings on record: pH 8.0; 25.0 °C.
Another data set addresses Eis_Mtb (Mycobacterium tuberculosis, UniProt P9WFK7). Conditions: read-out: Kd,AG(E•AcCoA).

As to “Eis_Mtb (Mycobacterium tuberculosis H37Rv)”, in the data set on kanamycin A, the Km came out at 490 ± 140 µM and the kcat came to 0.12 s⁻¹.
Regarding kanamycin A, the Kd on Eis_Mtb came to 350 ± 150 µM.
